# Assay results: patent US20190351039A1, “IMMUNOMODULATORY THERAPEUTIC MRNA COMPOSITIONS ENCODING ACTIVATING ONCOGENE MUTATION PEPTIDES” (priority 2017, published 2019)
# System: individual A*11 viral epitopes
# Format: in vivo, A11-transgenic mice
# Conditions: mice immunized with A11-viral epitope concatemer; day 21 spleen cells restimulated ex vivo
row,Sequence,antigen-specific CD8+ T cell responses to the individual viral epitope
1,ATIGTAMYK [EBV BRLF1],observed
2,AVDLSHFLK [HIV NEF],observed
3,SIIPSGPLK [FLU],observed
